Measured values from several laboratories, pooled; numbers as filed in NIAID ChemDB.

Shared fields: whole-cell or culture tests; organism: Mycobacterium tuberculosis

ECn is the concentration giving n% inhibition of infection, replication or growth. MIC bound comes from a single tested concentration. Inhibition is in % at the dose shown (toxicity tests: loss of growth or viability). Blank or dashed fields: not listed here. Conditions beyond the fields shown may differ between rows.

compound,measure,strain,method,dose,result
Cc1cccc(C(=O)O)c1,MIC,H37Rv,,,>100 µg/mL
Cn1c(=O)nc2n(-c3cccc(F)c3)c3ccccc3nc-2c1=O,inhibition,H37Rv,BACTEC,12.5 µg/mL,39%
CCCCN(CCNC[C@@H]1CC[C@H]2C[C@@H]1C2(C)C)Cc1ccccc1,MIC,,,,50 µM
O=c1c2ccccc2nc2n1OCC2,MIC bound,H37Rv,BACTEC,,>12.5 µg/mL
C=C(C)CN(CC(=C)C)c1nc(N)nc(Cl)n1,MIC,H37Rv,,,50 µg/mL
CC(NCCN[C@@H]1C[C@@H]2C[C@H]([C@H]1C)C2(C)C)c1cccc2ccccc12,MIC,,,,50 µM
CO[C@H]1/C=C/O[C@@]2(C)Oc3c(C)c(O)c4c(=O)c(c5oc6cc(N7CCN(C(C)C)CC7)cc(=O)c6nc5c4c3=C2O)NC(=O)/C(C)=C\C=C\[C@H](C)[C@H](O)[C@@H](C)[C@@H](O)[C@@H](C)[C@H](OC(C)=O)[C@@H]1C,MBC,2831 (rifampin-sensitive),,,0.05 µg/mL
O=C(NNc1nnc(-c2ccccc2)s1)c1ccccc1,MIC bound,H37Rv,BACTEC,,>12.5 µg/mL
Clc1ccc(CCNCCNCCc2ccccc2Cl)c(Cl)c1,MIC,,,,50 µM
c1ccc2nc(N3CC3)ccc2c1,MIC,H37Rv,,,>100 µg/mL
COc1ccc(CNCCNCCCc2ccccc2)cc1OC,MIC,,,,50 µM
COc1ccc2c(c1)OC(c1cccc([N+](=O)[O-])c1)CC2=O,inhibition,H37Rv,,12.5 µg/mL,0%
CCC[CH2][Sn]1([CH2]CCC)[O]C2C(O)OC(CO)C(O)C2[O]1,MIC,H37Rv,BACTEC,,3.13 µg/mL
OCc1ccccc1Sc1ccccc1CNCCNCc1ccc(C(F)(F)F)cc1,MIC,,,,25 µM
NNc1ccc([As]=O)cc1,MIC,H37Rv,,,100 µg/mL
N#CC(C#N)C1c2ccccc2Oc2ccccc21,inhibition,H37Rv,BACTEC,12.5 µg/mL,44%
NC(Cc1ccccc1Cl)C(=O)O,MIC,H37Rv,,,>100 µg/mL
Cc1cc(CCN)c(C)c2c1oc1ccccc12,MIC bound,H37Rv,BACTEC,,≤12.5 µg/mL
Oc1ccccc1,MIC,H37Rv,,,>100 µg/mL
CCOC(=O)Nc1cc(NC/C(=C\O)c2ccc(OC)c(OC)c2OC)c([N+](=O)[O-])c(N)n1,EC50,H37Rv,,,>12.5 µg/mL
O=C(/C=C/c1ccncc1)c1ccco1,inhibition,H37Rv,,12.5 µg/mL,0%
O=CC(NC(=O)N(CCCl)N=O)C(O)C(O)C(O)CO,MIC,H37Rv,BACTEC,,≥12.5 µg/mL
COc1cccc(C(=O)O)c1O,MIC,H37Rv,,,>100 µg/mL
CC1=C(C(=O)NCc2ccccc2)C(c2cccc([N+](=O)[O-])c2)C(C(=O)NCc2ccccc2)=C(C)N1,MIC bound,H37Rv,resazurin,,>6.25 µg/mL
C/C(=N\O)C(=O)c1ccccc1,MIC,H37Rv,,,50 µg/mL
C[N+]1=C2C=C(O)C(=O)C=C2C(O)C1,MIC bound,H37Rv,BACTEC,,>12.5 µg/mL
CCCCN1CCCNC1=S,MIC,H37Rv,,,>100 µg/mL
CCCCC(=O)Oc1ccc(C2=Nc3c(cc(NC(=O)OCC)nc3N)N[C@H]2C)cc1,EC50,H37Rv,,,>12.5 µg/mL
CCCCCCCC[N+]1([O-])CC[N+](C)([O-])CC1,MIC,H37Rv,BACTEC,,≥12.5 µg/mL
CO[C@H]1/C=C/O[C@@]2(C)Oc3c(C)c(O)c4c(O)c(c(/C=N/N5CCN(C/C=C/c6ccccc6)CC5)c(O)c4c3C2=O)NC(=O)/C(C)=C\C=C\[C@H](C)[C@H](O)[C@@H](C)[C@@H](O)[C@@H](C)[C@H](OC(C)=O)[C@@H]1C,MIC,3125 (rifampin-sensitive),,,0.05 µg/mL
COc1ccc(OC)c(CCNCCNCc2ccc(OC)c(OC)c2)c1,MIC,,,,6.25 µM
COc1ccc(CNCCNCCCc2ccccc2)cc1OC,MIC,,,,50 µM
Nc1cnn2cnnc2c1,inhibition,H37Rv,BACTEC,12.5 µg/mL,0%
CCOC(=O)Nc1cc2[nH]c(=S)n3c(=S)[nH]c(n1)c23,inhibition,H37Rv,,12.5 µg/mL,0%
CCOC(=O)Nc1ccc([As]=O)c(O)c1,MIC,H37Rv,,,>100 µg/mL
Clc1cc2nsnc2cc1Cl,inhibition,H37Rv,BACTEC,6.25 µg/mL,0%
CCOC(=O)C(O)(Nc1ccc(C)cc1)C(=O)OCC,MIC,H37Rv,,,>100 µg/mL
c1cnc2c(c1)ccc1ncccc12,MIC,H37Rv,BACTEC,,≥12.5 µg/mL
COc1ccc(C2(c3ccc(OC)c(C)c3)OC(=O)c3cccc(OC)c32)cc1C,MIC,H37Rv,,,>100 µg/mL
O=C1c2ccccc2OC(c2cccc(Br)c2)C1O,EC50,H37Rv,,,<12.5 µg/mL
CC(C)=CCC/C(C)=C/CNCCNCc1cccc(C)c1,MIC,,,,50 µM
O=C1c2ccccc2C(=O)C1C1C(=O)c2ccccc2C1=O,MIC,H37Rv,,,>100 µg/mL
COc1ccc(CNCCNCCc2ccc(F)cc2)c(OC)c1,MIC,,,,50 µM
CCOc1ccc(C(C)=O)cc1,MIC,H37Rv,,,>100 µg/mL
NN1C(=O)c2cccc3cccc(c23)C1=O,MIC bound,H37Rv,resazurin,,>6.25 µg/mL
CCOC(=O)CCc1ccc(-c2ccccc2)n1-c1ccccc1,MIC,H37Rv,,,>100 µg/mL
COc1ccc(OC)c(CCNCCNCCCN2CCCC2=O)c1,MIC,,,,12.5 µM
O=C(O)c1ccc2cccnc2c1O,MIC,H37Rv,,,100 µg/mL
CC1=NN(c2ccc(S(=O)(=O)O)cc2)C(=O)C1N=Nc1ccc(-c2ccc(N=Nc3ccc(O)c(C(=O)O)c3)c(C)c2)cc1C,MIC,H37Rv,BACTEC,,≥12.8 µg/mL
O=C1c2ccccc2OC(c2cccc(Cl)c2)C1O,inhibition,H37Rv,,12.5 µg/mL,63%
COC(=O)c1ccc(/C=C(\c2ccc([N+](=O)[O-])o2)S(=O)(=O)c2ccc(NC(C)=O)cc2)o1,MIC bound,H37Rv,BACTEC,,>12.5 µg/mL
CC(Cc1c[nH]c2ccccc12)NCCNCc1ccco1,MIC,,,,50 µM
Cc1cc(=O)n2c(nc3ccccc32)o1,inhibition,H37Rv,resazurin,6.25 µg/mL,3%
NCCCC1(CCCN)c2ccccc2-c2ccccc21,MIC,H37Rv,,,100 µg/mL
CCCCCCCCCCCNCCNCCc1ccccc1Cl,MIC,,,,25 µM
CC(Br)C(=O)NCC(=O)NCC(=O)O,MIC,H37Rv,,,>100 µg/mL
CC(NCCNC[C@@H]1CC[C@H]2C[C@@H]1C2(C)C)C12CC3CC(CC(C3)C1)C2,MIC,,,,50 µM
CNC(=O)c1nn(C)c(=O)[nH]c1=O,inhibition,H37Rv,BACTEC,12.5 µg/mL,-1%
C[C@@H]1[C@H]2C[C@@H](C[C@H]1NCCNC[C@@H]1CC[C@H]3C[C@@H]1C3(C)C)C2(C)C,MIC,,,,3.13 µM
CC1(C)Cc2c(oc3ncnc(N)c23)CS1,MIC bound,H37Rv,BACTEC,,>12.5 µg/mL
CCOC(=O)Nc1cc2c(c(N)n1)N=C(c1cccc(OC)c1)CS2,EC50,H37Rv,,,<12.5 µg/mL
O=[N+]([O-])c1cccc2c(Cl)nccc12,MIC,H37Rv,,,100 µg/mL
OC1(CNCCNCCCCc2ccccc2)CCCCC1,MIC,,,,25 µM
CCCCCCCCCCCCCCCC1=C(O)c2ncccc2C(=O)C1=O,MIC bound,H37Rv,resazurin,,>6.25 µg/mL
CC(C)=CCC/C(C)=C/CNCCN(Cc1ccccc1)Cc1ccccc1,MIC,,,,25 µM
CCN(CCNS(C)(=O)=O)c1ccc(N)cc1,MIC,H37Rv,,,>100 µg/mL
COc1ccc(OC)c(CCNCCNCC2(O)CCCCC2)c1,MIC,,,,12.5 µM
CCOC(=O)Nc1cc(NNC=O)c([N+](=O)[O-])c(N)n1,EC50,H37Rv,,,>12.5 µg/mL

A second listing of 4 rows from above:

{"compound": "CCOC(=O)Nc1ccc([As]=O)c(O)c1", "measure": "MIC", "strain": "H37Rv", "result": ">100 µg/mL"}
{"compound": "O=C(/C=C/c1ccncc1)c1ccco1", "measure": "inhibition", "strain": "H37Rv", "dose": "12.5 µg/mL", "result": "0%"}
{"compound": "CCOC(=O)Nc1cc2[nH]c(=S)n3c(=S)[nH]c(n1)c23", "measure": "inhibition", "strain": "H37Rv", "dose": "12.5 µg/mL", "result": "0%"}
{"compound": "NNc1ccc([As]=O)cc1", "measure": "MIC", "strain": "H37Rv", "result": "100 µg/mL"}